{
  "source": "paper PMC10819887",
  "about": "“Production of AFB1 High-Specificity Monoclonal Antibody by Three-Stage Screening Combined with the De-Homologation of Antibodies and the Development of High-Throughput icELISA” (Toxins, 2023)",
  "test_system": "ZFG8 monoclonal antibody",
  "design": "species or system mouse",
  "note": "Values joined by “and” are separate entries in the source; they are usually repeats but may differ in a detail not shown here. Equal entries are not always repeated.",
  "data": [
    {"substance": "aflatoxin B1 [AFB1]", "values": [
      {"measurement": "ELISA Recovery (%)", "value": "107% and 95% and 93% and 90% and 92% and 84%"}
    ]}
  ]
}
